In PMC3445454, “Broad and Cross-Clade CD4^+ T-Cell Responses Elicited by a DNA Vaccine Encoding Highly Conserved and Promiscuous HIV-1 M-Group Consensus Peptides” (PLoS ONE, 2012) one finds IC50 data, which are given here for six compounds.

For orientation: pIC50 means the negative decadic logarithm of the IC50, by convention in mol/L. A lower pIC50 goes with a large IC50.

Holding throughout (assay): biochemical
Assay [1] concerns the target HLA-DQ DQA1*02:01/DQB1*02:02 (Homo sapiens, UniProt P01909+P01920, A45G/A70V/C70K/D167G/D89A/E106A/E183D/E77G/E98D/F237L/F77L/G63E/H199R/I129T/K197E/L107V/L178F/L74F/N214S/P84L/P87L/Q57E/Q76R/R75H/S185I/S97I/T103K/T109R/T172A/T60S/V73L/V78E/V99I/Y48F/Y58L/Y62S/Y69I/Y79F). It is filed as binding. The note with it: for IC50: read-out: Binding capacity/IC50 (nM) DQA1*02:01 DQB1*02:02.

The target of assay [2] is HLA-DQ DQA1*03:01/DQB1*03:01 (Homo sapiens, UniProt P01909+P01920, A209T/C70Q/DUP78-78/E183D/F237L/G63E/I129T/K197E/L178F/L74F/L98V/Q57E/Q76R/S185I/S97I/T49S/V73L). The format is binding. Particulars: for IC50: read-out: Binding capacity/IC50 (nM) DQA1*03:01 DQB1*03:01.
The target of assay [3] is HLA-DQ DQA1*03:01/DQB1*03:02 (Homo sapiens, UniProt P01909+P01920, A209T/A45G/C70Q/D89A/DUP78-78/E183D/E77G/F237L/G63E/H199R/I129T/K197E/L178F/L74F/L98V/Q57E/Q76R/S185I/S97I/T217I/T49S/V73L/Y58L). The format is binding. The note with it: read-out: Binding capacity/IC50 (nM) DQA1*03:01 DQB1*03:02.
Assay [4] has as its target HLA-DQ DQA1*01:02/DQB1*06:02 (Homo sapiens, UniProt P01909+P01920, A157G/A45G/C70R/E118A/E183D/E77G/F83G/G63E/H151Q/H199R/H252R/H253Q/I129T/I235V/I88M/INS77G/K197Q/L117V/L119F/L178F/L71W/L74F/L85Q/L91A/L98M/N214S/P87R/Q116E/Q76K/R102G/R240Q/R75S/R78G/S102Y/S185I/S41F/S97I/T121G/T122I/T172A/T86R/V229M/V68A/V73E/Y34C/Y41F/Y58L). The format is binding. Particulars: for IC50: read-out: Binding capacity/IC50 (nM) DQA1*01:02 DQB1*06:02.

The target of assay [5] is HLA-DQ DQA1*05:01/DQB1*02:01 (Homo sapiens, UniProt P01909+P01920, A45G/A70V/D89A/E106A/E77G/E98D/H199R/L107V/N214S/P84L/P87L/T103K/T109R/T172A/T60S/V78E/V99I/Y58L/Y62S/Y69I/Y79F).
For assay [6], the target named is HLA-DQ DQA1*04:01/DQB1*04:02 (Homo sapiens, UniProt P01909+P01920, A45G/E106S/E183D/E77G/E98D/H199R/I129T/K197E/L107V/L178F/L91T/P87R/P88L/R102E/S185I/S97I/T103D/T217I/V99I/Y41F/Y58G).
Assay [7] addresses HLA-DQ DQA1*01:01/DQB1*05:01 (Homo sapiens, UniProt P01909+P01920, A157S/A45G/A70V/C70R/D89V/E106S/E118A/E183D/E77G/F83G/G63E/H151Q/H199R/H252R/H253Q/I129T/I235V/I88M/INS77G/K197Q/L107V/L117V/L119Y/L178F/L71W/L74F/L85Q/L91A/L98M/M46L/N214S/P87R/Q116E/Q256R/Q57E/Q76K/R102G/R240Q/R75S/R78G/S102Y/S185I/S41F/S97I/T103A/T109R/T121G/T122I/T172A/T86R/V148I/V68A/V73E/Y34C/Y58G/Y62H).
The target in assay [8] is HLA-DQ DQA1*01:02/DQB1*05:02 (Homo sapiens, UniProt P01909+P01920, A157S/A45G/A70V/C70R/D89S/E106S/E118A/E183D/E77G/F83G/G63E/H151Q/H199R/H252R/H253Q/I129T/I235V/I88M/INS77G/K197Q/L107V/L117V/L119Y/L178F/L71W/L74F/L85Q/L91A/L98M/M46L/N214S/P87R/Q116E/Q158H/Q256R/Q76K/R102G/R240Q/R75S/R78G/S102Y/S185I/S41F/S97I/T103A/T109R/T121G/T122I/T172A/T86R/V148I/V229M/V68A/V73E/Y34C/Y58G/Y62H).

Assay [9] concerns the target HLA-DQ DQA1*01:04/DQB1*05:03 (Homo sapiens, UniProt P01909+P01920, A157S/A221T/A45G/A70V/C70R/D25G/E106S/E118A/E183D/E77G/F83G/G63E/H151Q/H199R/H252R/H253Q/I129T/I235V/I88M/INS77G/K197Q/L107V/L117V/L119Y/L178F/L71W/L74F/L85Q/L91A/L98M/M46L/N214S/P87R/Q116E/Q256R/Q57E/Q76K/R102G/R240Q/R75S/R78G/S102Y/S185I/S41F/S97I/T103A/T109R/T121G/T122I/T172A/T86R/V148I/V68A/V73E/Y34C/Y58G/Y62H).

Assay [10] addresses HLA-DQ DQA1*01:03/DQB1*06:03 (Homo sapiens, UniProt P01909+P01920, A157G/A45G/C70R/E118A/E183D/E77G/F83G/G63E/H199R/H252R/H253Q/I129T/I235V/I88M/INS77G/K197Q/L117V/L119F/L178F/L71W/L74F/L85Q/L91A/L98M/N214S/P87R/Q116E/Q76K/R102G/R240Q/R64K/R75S/R78G/S102Y/S152A/S185I/S41F/S97I/T121G/T122I/T172A/T86R/V68A/V73E/Y34C/Y48F/Y58L/Y62H).

SMILES strings stand for the structures. pIC50: −log10 of the molar value. Read-outs that look alike come from different tables or passages of the source.

For `CSCC[C@H](NC(=O)[C@H](CCCCN)NC(=O)[C@H](C)NC(=O)[C@H](Cc1ccc(O)cc1)NC(=O)[C@H](CCCCN)NC(=O)CNC(=O)[C@@H](NC(=O)[C@H](CCCCN)NC(=O)[C@H](CC(C)C)NC(=O)[C@H](CC(N)=O)NC(=O)[C@H](CCCCN)NC(=O)[C@H](Cc1ccccc1)NC(=O)[C@@H]1CCCN1C(=O)[C@H](CCC(=O)O)NC(=O)[C@@H](N)CCC(N)=O)[C@@H](C)O)C(N)=O` [RT(343-357)], the IC50 in [1] was greater than 30000 nM; in [2], 4780 nM; in [3], greater than 30000 nM; in assay [4], greater than 30000 nM. The pIC50 is less than 4.52 in assay [5]; less than 4.52 in [6]; less than 4.52 in [7]; less than 4.52 in [8]; less than 4.52 in [9]; 5.24 in assay [10].

Take `CSCC[C@H](NC(=O)[C@H](CCCCN)NC(=O)[C@H](C)NC(=O)[C@@H](N)Cc1ccc(O)cc1)C(=O)N[C@@H](CCCNC(=N)N)C(=O)N[C@@H](CO)C(=O)N[C@@H](C)C(=O)N[C@@H](Cc1c[nH]cn1)C(=O)N[C@H](C(=O)N[C@@H](CC(N)=O)C(=O)N[C@@H](CC(=O)O)C(=O)N[C@H](C(=O)N[C@@H](CCCCN)C(=O)N[C@@H](CCC(N)=O)C(=O)N[C@@H](CC(C)C)C(N)=O)C(C)C)[C@@H](C)O` [RT(354-368)]: the pIC50 in assay [1] is 4.59; in [4] it was 6.36; in [5], less than 4.52; in assay [6], less than 4.52; in assay [7], 5.44; in [8], 5.23. The pIC50 was 5.41 in assay [9] and 6.47 in assay [10]. Besides, the values for the IC50 in assay [2] and in assay [3] were 33 nM and greater than 30000 nM, respectively.

Consider `CC[C@H](C)[C@H](NC(=O)[C@H](CCCCN)NC(=O)[C@H](CCC(N)=O)NC(=O)[C@@H](NC(=O)[C@H](C)NC(=O)[C@H](CCC(=O)O)NC(=O)[C@@H](N)[C@@H](C)O)C(C)C)C(=O)N[C@@H](C)C(=O)N[C@H](C(=O)N[C@@H](CCC(=O)O)C(=O)N[C@@H](CO)C(=O)N[C@H](C(=O)N[C@H](C(=O)N[C@H](C(=O)N[C@@H](Cc1c[nH]c2ccccc12)C(=O)NCC(=O)N[C@@H](CCCCN)C(=O)N[C@H](C(=O)N1CCC[C@H]1C(=O)N[C@@H](CCCCN)C(=O)N[C@@H](Cc1ccccc1)C(=O)N[C@@H](CCCNC(=N)N)C(=O)N[C@@H](CC(C)C)C(N)=O)[C@@H](C)O)[C@@H](C)CC)C(C)C)[C@@H](C)CC)[C@@H](C)O` [RT(369-391)], for which the IC50 in assay [1] came out at 618 nM; in assay [2], 1970 nM; in assay [3] it was 9610 nM; in [4], 2830 nM. The pIC50 in assay [5] was 5.98; in [6], 5.50; in [7], less than 4.52; in [8], less than 4.52; in assay [9], less than 4.52; in assay [10], 6.58.

In the case of `CC(C)C[C@H](NC(=O)[C@H](CCCCN)NC(=O)[C@@H](NC(=O)[C@H](CC(C)C)NC(=O)[C@@H]1CCCN1C(=O)[C@@H]1CCCN1C(=O)[C@@H](NC(=O)[C@H](CC(N)=O)NC(=O)[C@@H](NC(=O)[C@H](Cc1ccccc1)NC(=O)[C@H](CCC(=O)O)NC(=O)[C@H](Cc1c[nH]c2ccccc12)NC(=O)[C@@H](N)CCC(=O)O)C(C)C)[C@@H](C)O)C(C)C)C(=O)N[C@@H](Cc1c[nH]c2ccccc12)C(=O)N[C@@H](Cc1ccc(O)cc1)C(N)=O` [RT(413-427)], the pIC50 in assay [1] was 4.67; in assay [2], 5.50; in assay [4] it was less than 4.52; in [5], 6.10; in assay [6], 4.95; in assay [7] it was 5.17. Also, the pIC50 is 5.02 in assay [8], 4.64 in assay [9] and 5.78 in [10]. Further, the IC50 in [3] is greater than 30000 nM.

For the compound `CC[C@H](C)[C@H](NC(=O)CNC(=O)[C@H](CCCCN)NC(=O)[C@H](Cc1c[nH]cn1)NC(=O)[C@H](C)NC(=O)[C@@H]1CCCN1C(=O)[C@@H](NC(=O)[C@H](Cc1c[nH]c2ccccc12)NC(=O)[C@H](CO)NC(=O)[C@H](CC(C)C)NC(=O)[C@H](Cc1ccc(O)cc1)NC(=O)[C@@H](NC(=O)[C@H](CCCCN)NC(=O)[C@H](CCC(=O)O)NC(=O)[C@@H](N)CCCCN)C(C)C)C(C)C)C(=O)NCC(=O)NCC(=O)N[C@@H](CC(N)=O)C(=O)N[C@@H](CCC(=O)O)C(N)=O` [RT(528-546)], the IC50 was 21400 nM in assay [1], 70 nM in [2] and greater than 30000 nM in assay [3]. Also, the pIC50 was 6.35 in assay [4]; 5.42 in assay [5]; 5.01 in [6]; 5.15 in assay [7]; less than 4.52 in assay [8]; 5.56 in assay [9]. In assay [10], this compound gave a pIC50 of 6.66.

Turning to `CC[C@H](C)[C@H](NC(=O)[C@H](CCSC)NC(=O)[C@@H](NC(=O)[C@H](CCC(N)=O)NC(=O)[C@H](Cc1c[nH]c2ccccc12)NC(=O)[C@H](CCCNC(=N)N)NC(=O)[C@H](CC(N)=O)NC(=O)[C@H](CCC(=O)O)NC(=O)[C@@H](N)CCSC)C(C)C)C(=O)N[C@H](C(=O)N[C@@H](Cc1c[nH]c2ccccc12)C(=O)N[C@@H](CCC(N)=O)C(=O)N[C@H](C(=O)N[C@@H](CC(=O)O)C(=O)N[C@@H](CCCNC(=N)N)C(N)=O)C(C)C)C(C)C` [vif(1-15)], the pIC50 in [1] is 5.49; in assay [5], less than 4.52; in assay [6], 5.26; in [8], 6.16; in assay [9], 6.14; in assay [10], 5.10. Besides, the IC50 turned out to be 10400 nM in assay [2], 17600 nM in assay [3] and 1340 nM in [4].
